Source: PMC9910744, “Fibroblast-expressed LRRC15 is a receptor for SARS-CoV-2 spike and controls antiviral and antifibrotic transcriptional programs” (2023)

Target: LRRC15 isoform 2 (transcript 2), TurboGFP-tagged, in HEK293T cells (human) (UniProt Q8TF66)
Assay: flow cytometry on cells

With “SARS-CoV-2 HexaPro spike ectodomain, Alexa Fluor 647-conjugated (from UniProt P0DTC2 14-1208) (domain or fragment)” as the substance, how does the percent spike-positive cells read?
Its percent spike-positive cells is 64.5%.
